Measurements published in patent US12643899B2, “Antiviral agents, uses thereof and methods for their preparation” (The University of British Columbia, priority 2020, dated 2026).

System: ZIKV
Assay: Secreted NS1 (sNS1) ELISA, ZIKV-infected A549 cells
Format: cell-based, Zika virus
Details: therapeutic index from the ELISA (sNS1) IC50, A549 cells
Description: Error bars represent SD among 2 biological replicates.
Cultured A549 cells were treated with various concentrations of CA or PF-429242 for 24 h before being washed with PBS and inoculated with ZIKV (ZIKV strain VR 1843, Puerto Rico, 2015; ATCC) at MOI 1.0 for 1 h. Following the removal of the inoculum, cells were incubated in fresh media for 2 d before the supernatant was collected, clarified, and secreted NS1 protein abundance was measured by an ELISA kit (BioFront Technologies) according to the manufacturer's instructions. Curve fitting was performed in Igor Pro (WaveMetrics) using a hyperbolic fit algorithm (FIG. 4; upper and middle plots) and IC50 and TI values obtained. IC50 and TI values were also obtained for CA via plaque assay (PFU; FIG. 4, lower plot). FIG. 4 (upper plot) is an ED50 curve for the PF inhibitor based on the detection of secreted Non-Structural protein 1 (sNS1), secreted viral biomarker. sNS1 was detected using an Elisa test (commercially available). FIG. 4 (middle plot) is an ED50 curve for CA based on the detection of secreted Non-Structural protein 1 (sNS1), secreted viral biomarker. sNS1 was detected using an Elisa test (commercially available).

## CCN(CC)Cc1ccc(C(=O)N(CCc2ccccc2OC)[C@@H]2CCNC2)cc1 [PF, PF-429242, reference compound]
  TI: 5.5

## COc1c2n(c3ccccc13)[C@]1(O)C(=O)N(C)C(=O)[C@]1(O)c1c-2[nH]c2ccc(Cl)cc12 [CA, (11S,15R)-7-chloro-11,15-dihydroxy-23-methoxy-13-methyl-3,13,16-triazahexacyclo[14.7.0.0^2,10.0^4,9.0^11,15.0^17,22]tricosa-1(23),2(10),4(9),5,7,17,19,21-octaene-12,14-dione]
  TI: 675

The source's definition of the ratio is not given here.
